Consider one molecule from patent US20170107179A1 (Tetraphase Pharmaceuticals, Inc., priority 2010, published 2017).

For the test, the system named is Enterobacteriaceae. Put plainly: Broth microdilution MIC by tetracycline resistance phenotype (Table 10). It counts as cell-based. Further details: unit not given beside the values. (In general: Broth dilution looks for growth in wells or tubes with falling amounts of substance.)

`CN(C)[C@@H]1C(O)=C(C(N)=O)C(=O)[C@@]2(O)C(O)=C3C(=O)c4c(O)cccc4[C@@](C)(O)[C@H]3C[C@@H]12` [Tetracycline, tetracycline]: where the note is “TET NS, n=137”, the MIC50 is >8 and the MIC90 is listed as >8. Under “TET S, n=168”, this molecule returned an MIC50 of 1 and an MIC90 of 4.
